The source made the active and inactive calls. The calls are words filed in the database; no cut-off is given here.
Columns and labels:
Staphylococcus aureus [1] = test: Antibacterial activity against Staphylococcus aureus ATCC 29213 infected ICR mouse thigh infection model assessed as reduction in bacterial colony forming units administered iv at 2 hrs post-infection and measured at 24 hrs post-infection; conditions: time 22.0 hrs
Staphylococcus aureus [2] = test: Antibacterial activity against Staphylococcus aureus ATCC 29213 infected ICR mouse thigh infection model assessed as reduction in bacterial colony forming units administered at 10 mg/kg, po at 2 hrs post-infection and measured at 24 hrs post-infection; conditions: time 22.0 hrs

For `CC(=O)OP(=O)(O)N(C[C@H]1CN(c2cc(F)c(N3C=CC(=O)CC3)c(F)c2F)C(=O)O1)c1ccon1`, the Activity (Staphylococcus aureus [1]) was “Dde” and the Activity (Staphylococcus aureus [2]) was “Active”.
